Results from publication PMC11620640.

Molecular target: SARS-CoV-2 prototype (PT) spike receptor binding domain (RBD) (SARS-CoV-2) (UniProt P0DTC2)
Assay: SPR

| Substance | Kd [nM] |
| --- | --- |
| rdACE2 E38D | 43.4 |
| rdACE2 L24Q | 54.4 |
| rdACE2 R353K | 50.3 |
